Library screen at single concentrations

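Whole-cell growth test on Mycobacterium tuberculosis, read after 3 days in glucose-containing 7H9 medium; the read-out is not stated. Tested at 500 µM. The record gives no direction; compounds that gave an IC50 in retests scored well above the rest, so higher reads as more growth inhibition. About 18,000 compounds were tested under these conditions; 7.9% (about 1,400) showed 50% or more at least once.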

Values are the deposited “Percent Effect”, in %. The record does not define 0% and 100%; most values in the screen are far below 50% and negative numbers occur (in some assays of this library far below -100). This is part of a subset picked to be rich in strong results.

* CN(CC(N)=O)C(=O)c1ccc(OC2CCC2)cc1Cl | -2.648%
* CCNC(=O)CNc1ccnc2ccc(Br)cc12 | 5.745%
* C[C@@H]1CN(C(=O)c2cn(CCN)nn2)C[C@]1(C)O | 11.31%
* N#CC1(NC(=O)c2ccncc2Cl)CCSCC1 | 5.539%
* FC(F)Oc1ccc(C2CNCCO2)cc1 (configuration not stated) | 39.84%
* Cn1ccnc1CN(CCO)CC1CC1 | 13.75%
* CC(O)Cn1cccn1 (configuration not stated) | 7.891%
* Cc1csc(NC(=O)Cn2ccc(=O)n(C)c2=O)n1 | 15.72%
* COc1ccc(Br)c(C(=O)NCCCN)c1 | 23.45%
* Cc1cc(C)cc(OCCNC(=O)CSCC(N)=O)c1 | 55.72%
* CN1CCC(N(C)C(=O)Cc2ccc(F)cc2)CC1 | -9.591%
* COC(=O)CSCC(=O)Nc1cc(F)cc(F)c1 | 65.44%
* CC(C)CC(C)NCc1ccc(C(N)=O)o1 (configuration not stated) | 11.14%
* Clc1cccc2nc(N3CCNCC3)oc12 | 53.39%
* C1CN[C@H]2COC[C@H]2C1 | -2.419%
* C=C(C)CSCC(=O)NC1CCOCC1 | 3.983%
* CNC(=O)c1ccc(S(=O)(=O)NCC(C)C)cc1 | 25.9%
* Cc1nc(CN(C)CC(=O)Nc2ccn(C)n2)no1 | -1.793%
* COC(=O)CN(CCn1cncn1)C1CCCC1 | -5.218%
* NCC(O)c1c(F)cccc1F (configuration not stated) | 11.24%
* COc1cccn(CC(=O)N2CCCC(N)CC2)c1=O (configuration not stated) | -8.723%
* CC(C)=CCC1(CO)CCCN(CCS(C)(=O)=O)C1 (configuration not stated) | 15.91%
* CC(C)C(=O)c1ccncc1 | 7.188%
* C=C(Cl)CNC(=O)CNC(=O)Cc1ccc(O)cc1 | 15.92%
* O=C(CC1C=CCC1)NCCNc1ncccn1 (configuration not stated) | 25.62%
* CN(C)c1ncccc1C(=O)OCCN1CCOC1=O | 9.962%
* CCN1CCN(C(=O)C(C)Oc2ccc(F)cc2)CC1 (configuration not stated) | 14.55%
* CCC(=O)NC1CCNC1 (configuration not stated) | 0.2667%
* NC(CO)C1CCOCC1 (configuration not stated) | 9.011%
* CCOc1ccc2c(c1)C(N)CCO2 (configuration not stated) | 46.06%
* Cn1nccc1C(=O)NC1CCc2ccccc2OC1 (configuration not stated) | 53.82%
* CC(C)Oc1ccccc1CN(C)CC(N)=O | 11.91%
* CC(=O)N1CCN(Cc2cccc3c2OCCO3)CC1 | 13.37%
* CCS(=O)(=O)N1CCC(C(C)NC)CC1 (configuration not stated) | -2.329%
* CC(C)CNc1cccc(-n2cnnn2)c1 | 70.88%
* O=c1[nH]c(CN2CCOCC2)nc2ccsc12 | -8.485%
* CN(Cc1c(F)cccc1Cl)S(=O)(=O)N1CCOCC1 | 66.06%
* CCn1cc(OCCOCC2CCCO2)cn1 (configuration not stated) | 14.26%
* CCOC(=O)CNC(=O)Nc1ccc(C#N)cc1 | 9.463%
* OC1CCN(Cc2cc(Cl)c3c(c2)OCCO3)CC1 | 52.05%
* O=C(NCC1COCCO1)N(Cc1cccs1)C1CC1 (configuration not stated) | 30.08%
* Cc1cccc2c1C(=O)NCCN2 | -0.9214%
* CC(C)c1ccc(-c2nnn(CC(=O)N(C)C)n2)cc1 | 2.983%
* Cc1ccc(F)cc1C(=O)N1CCSC1 | 18.37%
* CCC1(CNC(=O)NCc2nnnn2C2CC2)CCC1 | 13.48%
* CCN(Cc1ccccc1)C(=O)C1CCNCC1 | 37.87%
* O=C(NC1CCCCC1)c1ccc(CO)cc1 | 62.19%
* CCOc1ccc(S(=O)(=O)NCCCO)cc1 | 11.68%
* COc1ccc(CNC2CCN(C(C)=O)CC2)cc1 | 8.674%
* CN(CCC#N)C(=O)COC(=O)c1ccccc1Br | 51.27%
* O=C(CNc1cccc(CO)c1)NCc1ccc(Cl)s1 | 67.63%

Once more, the final 5:

O=C(NC1CCCCC1)c1ccc(CO)cc1 gave 62.19%.
CCOc1ccc(S(=O)(=O)NCCCO)cc1 gave 11.68%.
COc1ccc(CNC2CCN(C(C)=O)CC2)cc1 gave 8.674%.
CN(CCC#N)C(=O)COC(=O)c1ccccc1Br gave 51.27%.
O=C(CNc1cccc(CO)c1)NCc1ccc(Cl)s1 gave 67.63%.

From ChEMBL document CHEMBL3988442, “University of Dundee, Small-Polar-MMV Screening Library” (2021).